Test results reported in patent publication US9422335B2, “Modified toll-like receptor 2 (TLR2) ligands as inhibitors of neutrophil recruitment” (priority 2011, dated 2016).

System: neutrophils (GFPhi cells)
Assay: Neutrophil whole blood and lymph node counts
Format: in vivo, LysM-eGFP mice

Pam3CSK4
neutrophil numbers in blood or lymph nodes (local administration, 4.5 hr): does not cause any changes in neutrophil numbers
circulating blood neutrophils (systemic administration, 16 hr): increased numbers of circulating blood neutrophils
neutrophils in the lymph nodes (systemic administration, 16 hr): increased, albeit low, numbers of neutrophils in the lymph nodes
